Molecules are shown by their SMILES.

For this assay, the system named is pooled sera of mice immunized with conjugate. Nature of the assay: Deletion sequence microarray: IgG of pooled sera of immunized mice against PS-I substructures. The conditions noted are these: for IgG antibody response of sera against PS-I pentasaccharide and deletion sequences: sera of mice immunized with Alum adjuvant; for Antibody response of sera against oligoglucose substructures: any of the three groups (no adjuvant, Freund's, Alum).

Turning to `C[C@@H]1O[C@@H](O[C@@H]2[C@@H](O)[C@H](O[C@H]3[C@H](O)[C@@H](O)[C@@H](OCCCCCN)O[C@@H]3CO)O[C@H](CO)[C@H]2O)[C@H](O)[C@H](O)[C@H]1O`, the “IgG antibody response of sera against PS-I pentasaccharide and deletion sequences” value (“IgG antibody response of sera” for short) is reported as “lower titers”.
Turning to `NCCCCCO[C@H]1O[C@H](CO)[C@@H](O)[C@H](O)[C@H]1O[C@H]1O[C@H](CO)[C@@H](O[C@@H]2O[C@H](CO)[C@@H](O)[C@H](O)[C@H]2O)[C@H](O)[C@H]1O`, the “Antibody response of sera against oligoglucose substructures” value is “No antibody response”.
On to `C[C@@H]1O[C@@H](O[C@@H]2[C@@H](O)[C@H](O[C@H]3[C@H](O[C@@H]4O[C@@H](C)[C@H](O)[C@@H](O)[C@H]4O)[C@@H](O)[C@@H](O[C@H]4[C@@H](OCCCCCN)O[C@H](CO)[C@@H](O)[C@@H]4O)O[C@@H]3CO)O[C@H](CO)[C@H]2O)[C@H](O)[C@H](O)[C@H]1O`, for which the “IgG antibody response of sera” value is reported as “more specific reactivity”.
With `C[C@@H]1O[C@@H](O[C@@H]2[C@@H](O)[C@H](OCCCCCN)O[C@H](CO)[C@H]2O)[C@H](O)[C@H](O)[C@H]1O`, the “IgG antibody response of sera” value is given as “lower titers”.
As to `NCCCCCO[C@H]1O[C@H](CO)[C@@H](O)[C@H](O)[C@H]1OC1O[C@H](CO)[C@@H](O)[C@H](O)[C@H]1O` (some centres unmarked), the “Antibody response of sera against oligoglucose substructures” value was “No antibody response”.

These data come from patent publication US9815889B2, “Antibodies for prevention and treatment of diseases caused by clostridium difficile” (dated 2017).
